Strings that start with PEPTIDE1 are HELM notation: dots part the residues, brackets hold end groups and non-standard residues.
Assay: general procedure: Fmoc solid-phase peptide synthesis; H-Rink amide ChemMatrix, 0.47 mmol/g; PyBOP/OxymaPure/DIPEA (printed for CF incorporation)
Details: 220 nm

Substance	final HPLC purity (conjugation step) [%]	final HPLC purity (whole synthesis) [%]
PEPTIDE1{[ac].C.G.R.K.K.R.R.Q.R.R.R.[am]}|CHEM1{[DoxMCC]}$PEPTIDE1,CHEM1,2:R3-1:R1$$$V2.0	>95	–
PEPTIDE1{[gCBAA].[cAmpGp].[gCBAA].[cAmpGp].[gCBAA].[cAmpGp].[gCBAA].[cAmpGp].[gCBAA].[cAmpGp].[gCBAA].[cAmpGp].[am]}$$$$V2.0	–	>95
PEPTIDE1{[gCBAA].[cAmpGp].[gCBAA].[cAmpGp].[gCBAA].[cAmpGp].[gCBAA].[cAmpGp].[gCBAA].[cAmpGp].[gCBAA].[cAmpGp].[gCBAA].[cAmpGp].[am]}$$$$V2.0	–	>97
PEPTIDE1{[gCBAA].[tAmpGp].[gCBAA].[tAmpGp].[gCBAA].[tAmpGp].[gCBAA].[tAmpGp].[gCBAA].[tAmpGp].[gCBAA].[tAmpGp].[am]}$$$$V2.0	–	>96
PEPTIDE1{[gCBAA].[tAmpGp].[gCBAA].[tAmpGp].[gCBAA].[tAmpGp].[gCBAA].[tAmpGp].[gCBAA].[tAmpGp].[gCBAA].[tAmpGp].[gCBAA].[tAmpGp].[am]}$$$$V2.0	–	>96

— PMC7590151 (International Journal of Molecular Sciences, 2020)
